Assay results: ChEMBL document CHEMBL1148873, “Carbonic anhydrase inhibitors: the beta-carbonic anhydrase from Helicobacter pylori is a new target for sulfonamide and sulfamate inhibitors” (Bioorg Med Chem Lett, 2007)

What was measured:
Helicobacter pylori [1] = assay: Activity of Helicobacter pylori beta CA at pH 8.3 by CO2 hydration assay
Helicobacter pylori [2] = assay: Ratio of kcat to Km of Helicobacter pylori beta CA
Helicobacter pylori [3] = assay: Ratio of kcat to Km of Helicobacter pylori alpha CA
Helicobacter pylori [4] = assay: Activity of Helicobacter pylori alpha CA at pH 8.9 by CO2 hydration assay

SMILES: CC(=O)Nc1nnc(S(N)(=O)=O)s1
- Km (Helicobacter pylori [1]): 14.7 mM
- kcat (Helicobacter pylori [1]): 7.1 10^5/s
- kcat/Km (Helicobacter pylori [2]): 4.8 10^7/M/s
- kcat/Km (Helicobacter pylori [3]): 1.5 10^7/M/s
- Km (Helicobacter pylori [4]): 16.6 mM
- kcat (Helicobacter pylori [4]): 2.5 10^5/s
